Where two headings read alike, the source gives them in different places.
Assays:
SARS-CoV-2 helicase [1] = biological target: T1, SARS-CoV-2 helicase (Severe acute respiratory syndrome coronavirus 2, UniProt P0DTD1); settings: read-out: IC50 ATPase activity; based on metal content
SARS-CoV-2 helicase [2] = biological target: T1, SARS-CoV-2 helicase; settings: read-out: IC50 DNA-unwinding activity; based on metal content

Substance: Bi(TPP) (TPP: tetraphenylporphyrinate)
- IC50 (SARS-CoV-2 helicase [1]): 2.39 ± 0.02 µM
- IC50 (SARS-CoV-2 helicase [2]): 3.69 ± 0.26 µM

— patent US20230218663A1, “COMPOSITIONS AND METHODS FOR TREATING A SARS-COV-2 INFECTION” (priority 2020, published 2023)
